Test results published in PMC11544220 (Scientific Reports, 2024).

Target: Mycobacterium tuberculosis dUTPase lacking the mycobacteria-specific loop A133-S137 (MtDUT^Δloop) (Mycobacterium tuberculosis, 133-AGLAS-137 (A133-S137) deleted)
Experiment: BLI

B1: Stl-Avi, biotinylated full-length Stl for the BLI sensor (natural protein)
chain: MEGAGQMAELPTHYGTIIKTLRKYMKLTQSKLSERTGFSQNTISNHENGNRNIGVNEIEIYGKGLGIPSYILHRISDEFKEKGYSPTLNDFGKFDKMYSYVNKAYYNDGDIYYSSYDLYDETIKLLELLKESKINVNDIDYDYVLKLYKQILSTDTEKSIINYETLANTRKSSDKKREVTIEEIGEFHEKYLKLLFTNLETHNDRKKALAEIEKLKEESIYLGEKLRLVPNHHYDAIKGKPMYKLYLYEYPDRLEHQKKIILEKDTN
modifications: biotin on the Avi-tag
In the case of B1, the Kd is reported as 0.033 ± 0.001 nM, the koff is reported as 5.99e-05 s⁻¹ and the kon is reported as 1.816e+06 ± 0.01 M⁻¹ s⁻¹.
